Sequence variants of PSTVd loop 6 after infection

PSTVd intermediate strain, loop 6: wild type UGACCGCGAG, pool pattern UNNNCGNNNG; upper and lower strand joined, each 5' to 3', the first 5 letters being the upper strand, closing pairs included.

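A pool of all variants was put on leaves of three Nicotiana benthamiana plants. Progeny were sequenced from the inoculated region (day 5), the margin of the inoculated leaf (day 10) and systemic leaves (day 12).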

Values are reads per thousand in the sample; higher means more abundant, 0 means not found.
Each site shows the three plants.
"Pool" is the share in the plasmid pool used as inoculum, on the same scale.
The inoculated region was read from the minus strand, the other sites from the plus strand.
IR is the inoculated region, LM the leaf margin, Sys the systemic leaves.
Sequences that differ at fixed positions probably stem from PCR or sequencing errors, and defective variants can be carried along by functional ones.

For UCUUCGUUAG (pool 0.353) the result was IR 0.174 / 0.180 / 0.111; LM 0 / 0 / 0; Sys 0 / 0 / 0. UCAACGCUAG (pool 0.0784) gave IR 0.747 / 0.575 / 0.590; LM 0.221 / 0.101 / 0.0696; Sys 0 / 0 / 0. UACGCGGCUG (pool 0.183) gave IR 0.0869 / 0.0719 / 0.0922; LM 0.0276 / 0 / 0.0232; Sys 0 / 0 / 0. For UGCUCGUACG (pool 0.235) the result was IR 0.191 / 0.0719 / 0.0184; LM 0 / 0 / 0; Sys 0 / 0 / 0. UUCCCGACAG (pool 0.183) read IR 0.122 / 0.0898 / 0.148; LM 0.0276 / 0 / 0.0232; Sys 0 / 0 / 0.

For CCGGCGGGAG (pool 0.0131) the result was IR 0 / 0 / 0; LM 0 / 0 / 0; Sys 0 / 0 / 0. With UAUGCGCAUG (pool 0.118) the assay gave IR 0.0869 / 0.0539 / 0.0738; LM 0 / 0 / 0.0232; Sys 0 / 0 / 0. With UAAACGCACG (pool 0.105) the assay gave IR 0.660 / 0.683 / 0.406; LM 0.0276 / 0.0757 / 0.0696; Sys 0 / 0.0606 / 0.0410. UGCGCGGGGG (pool 0.144) gave IR 0.139 / 0.0539 / 0.0553; LM 0 / 0 / 0; Sys 0 / 0 / 0. UGUUCGCAAG (pool 0.157) read IR 0.0695 / 0.162 / 0.240; LM 0.0828 / 0 / 0.0464; Sys 0 / 0 / 0.

UCCCCGAUUG (pool 0.340) read IR 0.191 / 0.0539 / 0.0369; LM 0 / 0.0504 / 0.0232; Sys 0.0180 / 0 / 0. UUAGCUACCC (pool 0.0131) gave IR 0 / 0 / 0; LM 0 / 0 / 0; Sys 0 / 0 / 0. For UGUUCGGCAG (pool 0.261) the result was IR 0.834 / 0.790 / 0.535; LM 0.0552 / 0 / 0.0232; Sys 0 / 0 / 0. UGACCGUAUG (pool 0.458) read IR 0.556 / 0.539 / 0.424; LM 94.1 / 3.10 / 0.487; Sys 0.0898 / 1.17 / 0.390. With UUCUCGCAUG (pool 0.327) the assay gave IR 0.122 / 0.0359 / 0.0369; LM 0 / 0 / 0; Sys 0 / 0 / 0.

UAUGCGAACG (pool 0.222) read IR 0.0869 / 0.126 / 0.0922; LM 0 / 0 / 0; Sys 0 / 0 / 0. UAAACGGGCG (pool 0.170) read IR 0.573 / 4.31 / 5.74; LM 1.46 / 1.21 / 0.812; Sys 0.144 / 0.707 / 0.492. For UCAGCGGGUG (pool 0.327) the result was IR 0.139 / 0.0359 / 0.0553; LM 0 / 0 / 0.0232; Sys 0 / 0 / 0. With UCUACGCGGG (pool 0.222) the assay gave IR 0.122 / 0.0539 / 0.0184; LM 0.0276 / 0 / 0.0232; Sys 0 / 0 / 0. For UGACGGAACG (pool 0.0131) the result was IR 0 / 0 / 0; LM 0 / 0 / 0; Sys 0 / 0 / 0.

For UUUUCGGUUG (pool 0.209) the result was IR 0.0869 / 0.144 / 0.0738; LM 0 / 0 / 0; Sys 0 / 0 / 0. With UUUACGCGAU (pool 0.0131) the assay gave IR 0 / 0.108 / 0.0738; LM 0.0276 / 0 / 0.0232; Sys 0 / 0 / 0. With UACACGACGG (pool 0.222) the assay gave IR 0.0695 / 0.0359 / 0.0184; LM 0.0276 / 0 / 0; Sys 0 / 0 / 0. With UUUGCGUCCG (pool 0.248) the assay gave IR 0.139 / 0.0539 / 0.0369; LM 0 / 0 / 0.0232; Sys 0 / 0 / 0. For UCCGCGUGCG (pool 0.157) the result was IR 0.0695 / 0.0539 / 0.0553; LM 0 / 0 / 0; Sys 0 / 0 / 0.

UAGCCGGCUG (pool 0.366) gave IR 0.0695 / 0.0898 / 0.148; LM 0 / 0.0252 / 0; Sys 0 / 0 / 0. UACCCGGCAG (pool 0.157) gave IR 0.0348 / 0.0539 / 0.0922; LM 0 / 0 / 0.0232; Sys 0 / 0 / 0. UUAACGCAGG (pool 0.235) read IR 0.0869 / 0.0719 / 0.0922; LM 0 / 0 / 0; Sys 0 / 0 / 0. With UAGUCGCACG (pool 0.131) the assay gave IR 0.139 / 0.144 / 0.0922; LM 0 / 0 / 0; Sys 0 / 0 / 0. UGUUCGCCGG (pool 0.209) gave IR 0.104 / 0.108 / 0.0553; LM 0 / 0 / 0; Sys 0 / 0 / 0.

For UAGCCCUGGG (pool 0.0131) the result was IR 0 / 0 / 0; LM 0 / 0 / 0; Sys 0 / 0 / 0. For UACCCGAUGG (pool 0.248) the result was IR 0.0521 / 0.108 / 0.184; LM 0 / 0 / 0.0696; Sys 0 / 0 / 0.

The opening 3 entries, copied out:

For UCUUCGUUAG (pool 0.353) the result was IR 0.174 / 0.180 / 0.111; LM 0 / 0 / 0; Sys 0 / 0 / 0.
For UCAACGCUAG (pool 0.0784) the result was IR 0.747 / 0.575 / 0.590; LM 0.221 / 0.101 / 0.0696; Sys 0 / 0 / 0.
For UACGCGGCUG (pool 0.183) the result was IR 0.0869 / 0.0719 / 0.0922; LM 0.0276 / 0 / 0.0232; Sys 0 / 0 / 0.

For reference, wild type rose from 20.7 per thousand in the pool to 195, 198, 203 (inoculated region), 629, 591, 734 (leaf margin) and 942, 870, 868 (systemic leaves).
Samples held 36,220 to 57,551 reads, so the smallest values rest on one or two reads.

From the data files of Wu et al. 2024, doi:10.1371/journal.ppat.1012142.